Assay [1] has as its target T1, EloB([…])/EloC([…])/Vif([…]) (human; HIV-1 (group M, subtype B)). Briefly: ITC, 30 C; GST-Cul5(N) titrated into the complex; one-site model. (In general: Isothermal titration calorimetry measures the heat released or taken up as one component is titrated into another.)
The target of assay [2] is T1, EloB([…])/EloC([…])/Vif([…]).
Assay [3] deals with EloB([…])-linker-Vif([…])/EloC([…]) (human EloB; HIV-1 (group M, subtype B; …). Briefly: GST pull-down, SDS-PAGE (FIG. 11B).

The record followed here is patent publication US20120271036A1 (UNIVERSITY OF ROCHESTER, published 2012).

B1: GST-Cul5(N)(2-384)(V341R, L345D) (other)
chain: MGSPILGYWKIKGLVQPTRLLLEYLEEKYEEHLYERDEGDKWRNKKFELGLEFPNLPYYIDGDVKLTQSMAIIRYIADKHNMLGGCPKERAEISMLEGAVLDIRYGVSRIAYSKDFETLKVDFLSKLPEMLKMFEDRLCHKTYLNGDHVTHPDFMLYDALDVVLYMDPMCLDAFPKLVCFKKRIEAIPQIDKYLKSSKYIAWPLQGWQATFGGGDHPPKSDLEVLFQGPMHMGGSTSNLLKNKGSLQFEDKWDFMRPIVLKLLRQESVTKQQWFDLFSDVHAVCLWDDKGPAKIHQALKEDILEFIKQAQARVLSHQDDTALLKAYIVEWRKFFTQCDILPKPFCQLEITLMGKQGSNKKSNVEDSIVRKLMLDTWNESIFSNIKNRLQDSAMKLVHAERLGEAFDSQLVIGVRESYVNLCSNPEDKLQIYRDNFEKAYLDSTERFYRTQAPSYLQQNGVQNYMKYADAKLKEEEKRALRYLETRRECNSVEALMECCVNALVTSFKETILAECQGMIKRNETEKLHLMFSLMDKVPNGIEPMLKDLEEHIISAGLADMVAAAETITTDSEKYREQLDTLFNRFSKLVKEAFQDDPRFLTARDKAYKAVVNDATIFK
notes: also called GST-Cullin5 N-terminal protein; GST-Cul5 2-384
In general, Kd refers to the equilibrium constant for the complex coming apart. Higher therefore signals weaker binding. As for B1, in assay [1], the Ka worked out at 3.75e+06 M⁻¹ and the Kd was 266 nM. In assay [2], this molecule showed an N of 0.674, a ΔH of -2020 and a ΔS of 23.4. Further, the binding result in assay [3] was “binds”.
